Anti-infective test results gathered from many reports (values: NIAID ChemDB through PubChem).

Common to all: tests on isolated targets; organism: HIV-1; protein: Protease; endpoint: inhibition

Percent inhibition refers to the dose given; in toxicity tests it is the harm to the cells. An empty or dashed field is not shown. Rows are shuffled and stem from different studies.

compound | tested at | read by | strain | result
CC[C@H](C)[C@H](NC(=O)[C@H](CCC(N)=O)NC(=O)[C@@H]1CCCN1C(C)=O)C(=O)N[C@H](C(=O)N[C@@H](CC(C)C)C(=O)O)[C@@H](C)O | 266 µg/mL | HPLC |  | 3%
COc1ccc(C2C3(CO)C4N(C(C)=O)C5C2(CO)C2N(C(C)=O)C3C4(CO)C(c3ccc(OC)cc3)C52CO)cc1 | 25 µM | absorbance |  | 7%
COc1c(O)cc([C@H]2Oc3cc(O)cc(O)c3C[C@@H]2O)cc1O[C@@H]1O[C@H](CO)[C@@H](O)[C@H](O)[C@H]1O | 100 µg/mL | HPLC | IIIB | 68.2%
CSCC[C@H](N)C(=O)N[C@H](C(=O)N[C@@H](CC(C)C)C(=O)N[C@@H](CC(N)=O)C(=O)N[C@@H](Cc1ccccc1)C(=O)O)[C@@H](C)O | 266 µg/mL | HPLC |  | 34%
OC(CCc1cc(F)cc(F)c1)c1cnc2sc3c(n12)CCCCC3 | 10 µM | fluorescence |  | 99%
CC(=O)N1C2C3(CO)C(c4ccccc4)C4(CO)C1C1(CO)C(c5ccccc5)C2(CO)C3N(C(C)=O)C41 | 50 µM |  |  | 6%
CC(C)(CC(=O)O)CC(=O)N[C@@H](Cc1ccccc1)[C@H](O)C(=O)N1CSC[C@H]1C(=O)NC(C)(C)C | 5 µM |  |  | 50%
COC(=O)[C@@H](NC(=O)/C=C/C(=O)N[C@H](C(=O)OC)C(C)C)C(C)C | 10 µM | absorbance |  | <10%
CC(=O)N1C2C3(CO)C(c4ccccc4)C4(CO)C1C1(CO)C(c5ccccc5)C2(CO)C3N(C(C)=O)C41 | 50 µM | absorbance |  | 6%
OC(CCc1ccccc1)c1cnc2sc3c(n12)CCCCCC3 | 3.3 µM | fluorescence |  | 88%
O=C1OC2(CCCC2)C(O)=C1C(c1ccccc1)C1CC1 | 3.7 µM | fluorescence |  | 100%
CCOC(=O)c1cn(CC(O)CNc2ccccc2N)cc1-c1ccccc1 | 200 µM |  |  | 26%
CC[C@H](C)[C@H](NC(=O)[C@H](Cc1ccccc1)NCC(O)[C@H](Cc1ccccc1)NC(=O)OC(C)(C)C)C(=O)N[C@@H](Cc1ccccc1)C(=O)OC | 10 µM |  |  | 91%
Cc1c(O)cccc1C(=O)N[C@@H](Cc1ccccc1)[C@H](O)C(=O)N1CSC(C)(C)[C@H]1C(=O)NCCCN1CCOCC1 | 0.064 µM | fluorescence | NL4-3 | 0%
CC[C@H](C)C(NC(=O)CNCC(O)[C@H](Cc1ccccc1)NC(=O)OCc1ccccc1)C(=O)N[C@@H](Cc1ccccc1)C(=O)OC | 10 µM |  |  | 14%
CC(C)(C)NC(=O)c1ccccc1C[C@@H](O)[C@H](Cc1ccccc1)NC(=O)[C@@H](CSc1ccccc1)NC(=O)OC(C)(C)C | 2 µg/mL | fluorescence |  | 3%
CCCC1(Cc2ccccc2)OC(=O)C(C(c2cccc(NS(=O)(=O)c3ccccc3)c2)C(C)C)=C1O | 3.3 µM | fluorescence |  | 100%
CC[C@H](C)[C@H](NC(=O)CN(O)C(=O)[C@H](Cc1ccccc1)NC(=O)OC(C)(C)C)C(=O)N[C@@H](Cc1ccccc1)C(=O)O | 10 µM |  |  | 13%
CC[C@@H](C)[C@H](NC(=O)[C@@H]1CCCN1C(=O)[C@@H](O)[C@H](Cc1ccccc1)NC(=O)[C@H](CCC(N)=O)NC(=O)CCc1ccccc1)C(=O)N[C@H](C(N)=O)C(C)C | 5 µM |  |  | 79.4%
CC(C)C[C@H](NC(=O)[C@@H](N)[C@@H](C)O)C(=O)N[C@@H](CC(N)=O)C(=O)N[C@@H](Cc1ccccc1)C(=O)O | 266 µg/mL | HPLC |  | 41%
COc1ccc(CCC(O)c2cnc3sc4c(n23)CCCCC4)cc1 | 10 µM | fluorescence |  | 92%
O=C1OC(C(CCc2ccccc2)c2ccccc2)C(O)=C1C(c1ccccc1)C1CC1 | 10 µM | fluorescence |  | 100%
NC(=O)CCNC(=O)[C@@H]1CCCN1C(=O)[C@@H](O)[C@H](Cc1ccccc1)NC(=O)[C@H](CC(N)=O)NC(=O)CCc1ccccc1 | 5 µM |  |  | 39.1%
CCOC(=O)c1cn(CC(O)CNc2cccc(C)c2)cc1-c1ccccc1 | 200 µM |  |  | 29%
CC(C)(C)NC(=O)c1ccccc1C[C@@H](O)[C@H](Cc1ccccc1)NC(=O)[C@H](Cc1ccccc1)NC=O | 1 µg/mL | fluorescence |  | 8%
O=C(Oc1ccccc1)N1C2C3(CO)C(c4ccccc4)C4(CO)C1C1(CO)C(c5ccccc5)C2(CO)C3N(C(=O)Oc2ccccc2)C41 | 25 µM | absorbance |  | 17%
CCOC(=O)c1cn(CC(O)CNc2cccc(Cl)c2)cc1-c1ccccc1 | 200 µM |  |  | 36%
COC(=O)[C@@H](NC(=O)N(Cc1ccccc1)CC(O)CN(Cc1ccccc1)C(=O)N[C@H](C(=O)OC)C(C)C)C(C)C | 10 µM |  |  | 36%
CC(C)(C)OC(=O)N1C2C3(CO)C(c4ccccc4)C4(CO)C1C1(CO)C(c5ccccc5)C2(CO)C3N(C(=O)OC(C)(C)C)C41 | 25 µM |  |  | 49%
CCOC(=O)c1cn(CC(O)CNc2ccccc2)cc1-c1ccccc1 | 200 µM |  |  | 27%
COc1ccc(C2C3(CO)C4N(C(=O)OC(C)(C)C)C5C2(CO)C2N(C(=O)OC(C)(C)C)C3C4(CO)C(c3ccc(OC)cc3)C52CO)cc1 | 50 µM |  |  | 32%
CC(=O)N[C@H](C(=O)N[C@@H](CC(C)C)C(=O)N[C@@H](CC(N)=O)C(=O)N[C@@H](Cc1ccccc1)C(=O)O)[C@@H](C)O | 266 µg/mL | HPLC |  | 18%
OC(CCc1cccc(Br)c1)c1cnc2sc3c(n12)CCCCC3 | 10 µM | fluorescence |  | 89%
CSCC[C@H](NC(C)=O)C(=O)N[C@@H](Cc1ccccc1)[C@H](O)Cc1ccccc1C(=O)NC(C)(C)C | 1 µg/mL | fluorescence |  | 45%
COc1c(O)cc([C@H]2Oc3cc(O)cc(O[C@@H]4O[C@H](CO)[C@@H](O)[C@H](O)[C@H]4O)c3C[C@H]2O)cc1O | 100 µg/mL | HPLC | IIIB | 72.9%
CCC(C)C(NC(=O)C1CCCN1C(=O)CC(=O)N1CCCC1C(=O)NC(C(=O)NC(C(=O)OC)C(C)C)C(C)CC)C(=O)NC(C(=O)OC)C(C)C | 10 µM | absorbance |  | <10%
CCCC1(CCC)OC(=O)C(C(c2cccc(NS(=O)(=O)c3ccc(F)cc3)c2)C2CC2)=C1O | 3.3 µM | fluorescence |  | 100%
COC(=O)N1C2C3(CO)C(c4ccccc4)C4(CO)C1C1(CO)C(c5ccccc5)C2(CO)C3N(C(=O)OC)C41 | 50 µM |  |  | 9%
CCC(C)NC(=O)[C@@H]1CCCN1C(=O)[C@@H](O)[C@H](Cc1ccccc1)NC(=O)[C@H](CC(N)=O)NC(=O)OCc1ccccc1 | 0.05 µM |  |  | 17.4%
CC(C)(C)NC(=O)[C@@H]1CN(Cc2cncs2)CCN1C[C@@H](O)C[C@@H](Cc1ccccc1)C(=O)N[C@H]1c2ccccc2C[C@H]1O | 0.0005 µM | fluorescence | IIIB | 61%
CC[C@H](C)COC(=O)C(Cc1ccccc1)NC(=O)C(=O)NC(Cc1ccccc1)C(=O)OC[C@@H](C)CC | 10 µM | absorbance |  | 45%
CC[C@H](C)[C@H](NC(=O)CN(N)C(=O)[C@H](Cc1ccccc1)NC(=O)OC(C)(C)C)C(=O)N[C@@H](Cc1ccccc1)C(=O)OC | 10 µM |  |  | 3%
COc1ccc(/C=C/C(=O)C2=C(O)/C(=C/c3ccc(OC)c(OC)c3)CCC2)cc1OC | 10 µM | fluorescence |  | 61.6%
CC(C)(C)NC(=O)[C@@H]1CSCN1C(=O)[C@@H](O)[C@H](Cc1ccccc1)NC(=O)[C@@H](NC(=O)COc1cccc2ccccc12)C(C)(C)S(C)(=O)=O | 0.05 µM |  |  | 92.7%
CO[C@H]1[C@H](OCc2ccccc2)[C@@H](O)[C@H](Oc2ccccc2)O[C@@H]1CNC(=O)C(NC(C)=O)C(C)C | 100 µM |  |  | 19%
CC(C)COC(=O)[C@H](Cc1ccccc1)NC(=O)C[C@H](O)C(=O)N[C@@H](Cc1ccccc1)C(=O)OCC(C)C | 10 µM | absorbance |  | 29%
COC(=O)N1C2C3(CO)C(c4ccc(OC)cc4)C4(CO)C1C1(CO)C(c5ccc(OC)cc5)C2(CO)C3N(C(=O)OC)C41 | 50 µM |  |  | 9%
C=CSC(NC(=O)[C@H](Cc1ccccc1)NS(=O)(=O)N1CCOCC1)C(=O)N[C@@H](CC1CCCCC1)[C@@H](O)C[C@H](C(=O)NCCCC)C(C)C | 0.1 µM | HPLC |  | 54%
CC(C)(C)NC(=O)[C@@H]1CSCN1C(=O)[C@@H](O)[C@H](Cc1ccccc1)NC(=O)CCCC(=O)O | 5 µM |  |  | 82%
O=C(Nc1ccccc1)N(Cc1ccccc1)CC(O)CN(Cc1ccccc1)C(=O)Nc1ccccc1 | 10 µM |  |  | 16%
Oc1cc(O)c2c(c1)O[C@H](c1cc(O)c(O)c(O)c1)[C@H](O)C2 | 100 µg/mL | HPLC | IIIB | 43.6%
COC(=O)[C@H](NC(=O)N(Cc1ccccc1)CC(O)CN(Cc1ccccc1)C(=O)N[C@@H](C(=O)OC)C(C)C)C(C)C | 10 µM |  |  | 16%
OC(CCc1ccccc1)c1cnc2sc3c(n12)CCCC3 | 3.3 µM | fluorescence |  | 100%
CC[C@@H](C)[C@H](NC(=O)[C@@H]1CCCN1C(=O)[C@@H](O)[C@H](CC1CCCCC1)NC(=O)[C@H](CC(N)=O)NC(=O)[C@@H]1Cc2ccccc2N1)C(=O)N[C@H](C(N)=O)C(C)C | 5 µM |  |  | 94.5%
CC(C)(C)C(=O)OC[C@H]1O[C@@H](Oc2ccccc2)[C@H](O)[C@@H](OC(=O)C(C)(C)C)[C@@H]1O | 100 µM |  |  | 24%
COC(=O)N1C2C3(CO)C(c4ccc(OC)cc4)C4(CO)C1C1(CO)C(c5ccc(OC)cc5)C2(CO)C3N(C(=O)OC)C41 | 50 µM | absorbance |  | 9%
CCOC(=O)c1cccn1CC(O)CNc1ccccc1 | 200 µM |  |  | 17%
CC(C)(C)NC(=O)N(Cc1cccc(O)c1O)CC(O)CN(Cc1cccc(O)c1O)C(=O)NC(C)(C)C | 10 µM |  |  | 67%
COc1ccc(C2C3(CO)C4N(C(=O)Oc5ccccc5)C5C2(CO)C2N(C(=O)Oc6ccccc6)C3C4(CO)C(c3ccc(OC)cc3)C52CO)cc1 | 50 µM | absorbance |  | 18%
CCOC(=O)c1cn(CC(O)CSc2ccccc2)cc1-c1ccccc1 | 200 µM |  |  | 24%
CC[C@H](C)[C@H](NC(=O)[C@H](Cc1ccccc1)NC[C@H](Cc1ccccc1)NC(=O)OC(C)(C)C)C(=O)N[C@@H](Cc1ccccc1)C(=O)OC | 10 µM |  |  | 42%
COc1c(O)cc([C@H]2Oc3c(c(O)cc(O)c3C3c4c(O)cc(O)cc4O[C@H](c4ccc(O)c(O)c4)[C@@H]3O)C[C@H]2O)cc1O | 100 µg/mL | HPLC | IIIB | 30.5%

Repeating the final 8 entries:

compound,tested at,read by,strain,result
CC(C)(C)C(=O)OC[C@H]1O[C@@H](Oc2ccccc2)[C@H](O)[C@@H](OC(=O)C(C)(C)C)[C@@H]1O,100 µM,,,24%
COC(=O)N1C2C3(CO)C(c4ccc(OC)cc4)C4(CO)C1C1(CO)C(c5ccc(OC)cc5)C2(CO)C3N(C(=O)OC)C41,50 µM,absorbance,,9%
CCOC(=O)c1cccn1CC(O)CNc1ccccc1,200 µM,,,17%
CC(C)(C)NC(=O)N(Cc1cccc(O)c1O)CC(O)CN(Cc1cccc(O)c1O)C(=O)NC(C)(C)C,10 µM,,,67%
COc1ccc(C2C3(CO)C4N(C(=O)Oc5ccccc5)C5C2(CO)C2N(C(=O)Oc6ccccc6)C3C4(CO)C(c3ccc(OC)cc3)C52CO)cc1,50 µM,absorbance,,18%
CCOC(=O)c1cn(CC(O)CSc2ccccc2)cc1-c1ccccc1,200 µM,,,24%
CC[C@H](C)[C@H](NC(=O)[C@H](Cc1ccccc1)NC[C@H](Cc1ccccc1)NC(=O)OC(C)(C)C)C(=O)N[C@@H](Cc1ccccc1)C(=O)OC,10 µM,,,42%
COc1c(O)cc([C@H]2Oc3c(c(O)cc(O)c3C3c4c(O)cc(O)cc4O[C@H](c4ccc(O)c(O)c4)[C@@H]3O)C[C@H]2O)cc1O,100 µg/mL,HPLC,IIIB,30.5%